According to PMC2426711, “Pre-clinical development as microbicide of zinc tetra-ascorbo-camphorate, a novel terpenoid derivative: Potent in vitro inhibitory activity against both R5- and X4-tropic HIV-1 strains without significant in vivo mucosal toxicity” (AIDS Research and Therapy, 2008):

Assays:
[1] = test system: monocyte-derived macrophages (MΦ); experiment: MTT cytotoxicity assay on monocyte-derived macrophages; type: cell-based, human; conditions: 24 hours
[2] = test system: monocyte-derived dendritic cells (DC); experiment: MTT cytotoxicity assay on monocyte-derived dendritic cells; type: cell-based, human; conditions: 24 hours
T cells = experiment: MTT cytotoxicity assay on T cells; type: cell-based, human; conditions: 24 hours
[3] = test system: primary cells (MDDC, T cells and MDM); conditions: overall statement
cervicovaginal mucosa = conditions: for Epithelium (0–4) score / Infiltration of leucocytes (0–4) score / Vascular congestion (0–4) score: mean ± 1 SD
[4] = C14-HD, 20 μM, vaginally 1 ml per day, 10 days
[5] = C14-LD, 1 μM, vaginally 1 ml per day, 10 days

## zinc tetra-ascorbo-camphorate [C14]
[1]
  CC50: > 10 µM
[2]
  CC50: > 10 µM
T cells
  CC50: > 10 µM
[3]
  CC50: > 10 µM
Cervicovaginal mucosa; 1 or 20 μM, 10 days
  clinical observations (vaginal discharge, erythema, edema): no vaginal discharge, erythema or edema were noted
  mortality: no mortality
  necrosis or vascular thrombi: No necrosis or vascular thrombi were observed
Cervicovaginal mucosa; [4]
  Edeme (0–4) score: 0
  Epithelium (0–4) score: 1.560 ± 1.667
  Infiltration of leucocytes (0–4) score: 0.556 ± 0.880
  Vascular congestion (0–4) score: 0.444 ± 1.330
Cervicovaginal mucosa; C14-HD, 20 μM, two rabbits
  erosion of the mucosal surface: local minimal erosion of the mucosal surface
Cervicovaginal mucosa; C14-LD or C14-HD, 10 days
  grade of leukocyte infiltration and vascular congestion: minimal
Cervicovaginal mucosa; [5]
  Edeme (0–4) score: 0
  Epithelium (0–4) score: 0.889 ± 1.270
  Infiltration of leucocytes (0–4) score: 0.444 ± 0.520
  Vascular congestion (0–4) score: 0.778 ± 1.394
Cervicovaginal mucosa; C14-LD, 1 μM, vaginally 1 ml per day, 10 days, addition of the four scores
  Vaginal irritation index (0–16): 2.1

Read-outs that look alike come from different tables or passages of the source.
